Paper PMC12666128, “Engineering ω-transaminase for efficient dihydroxyacetone transamination in serinol biosynthesis starting from methanol” (Synthetic and Systems Biotechnology, 2025)

System: O=C(CO)CO
Experiment: purified protein
Conditions: DHA as varied substrate; PLP-dependent; variant M3

In the case of “Cv-ωTA (Chromobacterium violaceum ATCC 12472; C418F/Y153F/Y168F)”, the Km is reported as 7.22 ± 0.13 mM, the kcat is reported as 3.04 s⁻¹ and the kcat/Km is reported as 420 M⁻¹ s⁻¹.
